Legend:
A/Colorado/18/2022 HA = A/Colorado/18/2022 HA (influenza A (H5N1) virus, strain …); experiment: cell-based or functional assay
A/Mink/Spain/3691-8 HA = A/Mink/Spain/3691-8 HA (influenza A (H5N1) virus, strain …); experiment: cell-based or functional assay

Row | Binder | Hemagglutination Inhibition Endpoint Titers (A/Colorado/18/2022 HA) | Pseudovirus Neutralization (IC50, ng/mL) (A/Colorado/18/2022 HA) | Hemagglutination Inhibition Endpoint Titers (A/Mink/Spain/3691-8 HA) | Pseudovirus Neutralization (IC50, ng/mL) (A/Mink/Spain/3691-8 HA)
1 | mAb NVX.361.4 (antibody, V domains shown) VH: QVQVQQSGSELVKPGASVRLSCKASGYNFTTYYMYWVKQRPGQGLEWIGEINPTNGISNFNERFKNKATLTVDKSSSTAYMQLSSLTSEDSAVYYCTRASDYYGGSWFAYWGQGTLVTVSA VL: DIVMTQSQKFMSTSVGDRVSVTCKASQNVYTNVAWYQQKPGQSPKALIYSASFRYNGVPDRFTGSGSGTDFTLTISNVQSEDLADYFCQQYNNYPLTFGAGTKLELK | 250 ng/mL | 4.86 ng/mL | 250 ng/mL | 13.1 ng/mL
2 | mAb NVX.73.2 (antibody, V domains shown) VH: QIQLVQSGPELKKPGETVKISCKASGYTFTNYGMNWVKQAPGKGLKWMDWIHTYTGEPTYADDFKGRFAFSLETSASTAYLQINNLTNEDTATYFCARQYGSSYGYFDYWGQGTTLTVSS VL: DIVLTQSPASLAVSLGQRATISCRASESVDSYGKSFMHWYQQKPGQPPKLLIYRASNLESGIPARFSGSGSRTDFTLTINPVEADDVATYYCQQSNEDPRTFGGGTKLEIK | > 500 ng/mL | 22.4 ng/mL | > 500 ng/mL | 43.7 ng/mL

— patent publication US20250276054A1 (NOVAVAX, published 2025)
